Results of unrelated studies side by side (data: NIAID ChemDB).

Shared fields: whole-cell or culture tests; organism: HIV-1; cells: MT-2; endpoint: inhibition

Blank or dashed fields: not listed here. Percent inhibition refers to the dose given; in toxicity tests it is the harm to the cells. Neighbouring rows are from separate reports.

SMILES | strain | method | tested at | result
Nc1ccn([C@H]2CC[C@@H](CO)O2)c(=O)n1 | IIIB | cytopathic effect / MTT | 0.4 µM | 25%
N#CC1C=Cc2ccccc2N1C(=O)c1ccc(Cl)cc1 | IIIB | syncytia | 17.8 µM | 100%
NCC(=O)N1CCC[C@H]1C(=O)NCC(N)=O | LAV | p24 | 20 µM | 61%
Cc1c2ccnc(Cl)c2cc2c3cn(C)ccc-3nc12 |  | syncytia | 0.1 µM | 5%
Nc1ccn([C@H]2CC[C@@H](CO)O2)c(=O)n1 | LAV-1 | RT activity | 0.1 µM | 80%
O=C(C(=O)N1CCN(C(=O)c2ccccc2)CC1)c1c[nH]c2cc(Cl)ccc12 | BRU | RT activity | 10 µM | 95.6%
CC(C)CN(C[C@@H](O)[C@H](Cc1ccccc1)NC(=O)[C@@H](NC(=O)CNC(C)(C)c1cccc(F)c1)C(C)(C)C)S(=O)(=O)c1ccc2nc(N)sc2c1 | RF |  | 90 µM | <1%
O=C(C(=O)N1CCN(C(=O)c2ccccc2)CC1)c1c[nH]c2cccc([N+](=O)[O-])c12 | BRU | RT activity | 10 µM | 88.3%
CC(C)CN(C[C@@H](O)[C@H](Cc1ccccc1)NC(=O)[C@@H](NC(=O)[C@@H](C)NC(C)(C)c1ccccc1)C(C)(C)C)S(=O)(=O)c1ccc2nc(N)sc2c1 | RF |  | 90 µM | <1%
Cc1cccc2c(C(=O)C(=O)N3CCN(C(=O)c4ccccc4)CC3)c[nH]c12 |  | RT activity | 10 µM | >98%
CC1(C)CC[C@]2(C(=O)NCCCCCC(=O)O)CC[C@]3(C)C(=CC[C@@H]4[C@@]5(C)C[C@@H](O)[C@H](O)C(C)(C)[C@@H]5CC[C@]43C)[C@@H]2C1 | pNL4-3 | p24 / ELISA | 10 µM | -46.4%
CC(=O)O[C@H]1CC[C@H](O)CC[C@@H](C)/C=C/[C@@]2(C)CC[C@@H](C(C)(C)OC(C)=O)[C@H]12 |  | cytopathic effect / MTT | 6.25 µM | 69%
COC(=O)[C@@H](NC(=O)[C@]12CCC(C)(C)C[C@H]1C1=CC[C@@H]3[C@@]4(C)C[C@@H](O)[C@H](O)C(C)(C)[C@@H]4CC[C@@]3(C)[C@]1(C)CC2)C(C)C | pNL4-3 | p24 / ELISA | 10 µM | 28%
CC(CO)n1cnc2c(Cl)nc(N)nc21 | LAV-1 | RT activity | 100 µM | 20%
O=C(Nc1ccc(Cl)cc1)Nc1ccc(Nc2ccnc3cc(Cl)ccc23)cc1 |  | p24 | 2.36 µM | 40%
CC1(C)CC[C@]2(C(=O)NCCCCCC(=O)NCC(=O)O)CC[C@]3(C)C(=CC[C@@H]4[C@@]5(C)C[C@@H](O)[C@H](O)C(C)(C)[C@@H]5CC[C@]43C)[C@@H]2C1 | pNL4-3 | p24 / ELISA | 10 µM | -25.7%
CC(=O)Oc1cc2[nH]cc(C(=O)C(=O)N3CCN(C(=O)c4ccccc4)CC3)c2cc1OC(C)=O | BRU | RT activity | 10 µM | 34%
Nc1ccn([C@@H]2O[C@H](COP(=O)(O)O[C@@H]3[C@H](O)[C@@H](COP(=O)(O)O[C@@H]4[C@H](O)[C@@H](COP(=O)(O)O[C@@H]5[C@H](O)[C@@H](COP(=O)(O)O)O[C@H]5n5ccc(N)nc5=O)O[C@H]4n4ccc(N)nc4=O)O[C@H]3n3ccc(N)nc3=O)[C@@H](O)[C@H]2O)c(=O)n1 |  | cytopathic effect / neutral red | 25 µM | 36%
COc1cc(NC(C)CCCNCc2cc(Nc3ccnc4cc(Cl)ccc34)cc(CN3CCCC3)c2O)c2ncccc2c1 |  | p24 | 1.36 µM | 0%
CC(C)CN(C[C@@H](O)[C@H](Cc1ccccc1)NC(=O)[C@@H](NC(=O)[C@@H](C)NC(C)(C)c1ccccc1)C(C)(C)C)S(=O)(=O)c1ccc2ncsc2c1 | RF |  | 90 µM | <1%
CCOC(=O)c1cccc2c(C(=O)C(=O)N3CCN(C(=O)c4ccccc4)CC3)c[nH]c12 | BRU | RT activity | 10 µM | >98%
O=C(CSc1nc2ccc(NC(=O)c3ccccc3C(=O)O)cc2s1)NCc1ccccc1 | IIIB | p24 | 10 µM | 29%
CC1=NNC(N)=N/C1=C\C(Sc1ccc(Cl)cc1)c1cc2ccccc2cc1O | RF |  | 6.33 µM | 12.77%
C=CC[C@H](NC(=O)[C@H](Cc1ccccc1)NS(=O)(=O)N1CCOCC1)C(=O)N[C@@H](CC1CCCCC1)[C@@H](O)C[C@H](C(=O)NCCCC)C(C)C | IIIB | cytopathic effect / XTT | 4.3 µM | 77%
CC(=O)N[C@@H](Cc1c[nH]c2ccccc12)C(=O)N[C@H](C(=O)N[C@@H](Cc1ccccc1)[C@H](O)[C@@H](O)[C@@H]1CCCN1C(=O)[C@@H](NC(=O)[C@H](Cc1c[nH]c2ccccc12)NC(C)=O)C(C)C)C(C)C | IIIB | MTT | 0.005 µM | <10%
COc1ccc(-c2cc(C(=O)Nc3ccc(S(=O)(=O)Nc4cc(C)nc(C)n4)cc3)c3ccccc3n2)cc1 | IIIB | p24 | 10 µM | 18.2%
Nc1ccn([C@H]2C=C[C@@H](CO)O2)c(=O)n1 | LAV | RT activity | 0.01 µM | 61%
CC(=O)N[C@H](C(=O)N[C@@H](Cc1ccccc1)[C@@H](O)CN(CC1CCCCC1)NC(=O)[C@@H](NC(C)=O)C(C)C)C(C)C | MN | RT activity | 1 µM | 90%
O=C(CCCCC(=O)Nc1sc2c(c1C(=O)O)CCCC2)Nc1sc2c(c1C(=O)O)CCCC2 | IIIB | p24 | 10 µM | 26.7%
O=C(O)C(O)c1ccccc1 | IIIB | cytopathic effect | 64 µg/mL | 99.9%
CC(=O)O[C@H]1CC[C@@H](O)CC[C@@H](C)/C=C/[C@@]2(C)CC[C@@H](C(C)(C)OC(C)=O)[C@H]12 |  | cytopathic effect / MTT | 6.25 µM | 83%
O=C(C(=O)N1CCN(C(=O)c2ccc(F)c(Cl)c2)CC1)c1c[nH]c2ccccc12 | BRU | RT activity | 10 µM | 46%
CC(C)=CCO[C@H]1C(=O)Nc2ccc(Cl)cc2[C@@]1(C#CC1CC1)C(F)(F)F | RF |  | 1 µM | 90%
CC(C)CN(C[C@@H](O)[C@H](Cc1ccccc1)NC(=O)[C@@H](NC(=O)CNC(C)(C)c1cccc(F)c1)C(C)(C)C)S(=O)(=O)c1ccc2ncsc2c1 | RF |  | 90 µM | <1%
Cc1[nH]c2ccccc2c1C(=O)C(=O)N1CCN(C(=O)c2ccccc2)CC1 | BRU | RT activity | 10 µM | 54.9%
Nc1nc(=O)n([C@@H]2CC[C@H](CO)O2)cc1F | IIIB | cytopathic effect / MTT | 0.4 µM | 36%
CC(C)[C@H](NC(=O)[C@H](Cc1ccccc1)C[C@H](O)[C@H](Cc1ccccc1)NC(=O)OC(C)(C)C)C(=O)N[C@@H](Cc1ccccc1)C(=O)N1CCOCC1 | MN | RT activity | 0.03 µM | 90%
CC(C)[C@H](NC(=O)[C@H](Cc1ccccc1)C[C@H](O)[C@H](Cc1ccccc1)NC(=O)OC(C)(C)C)C(=O)N[C@@H](Cc1ccccc1)C(=O)N1CCOCC1 | pLAI | RT activity | 0.1 µM | 90%
Cc1ccc(C(=O)N2CCN(C(=O)C(=O)c3c[nH]c4ccccc34)CC2)cc1F | BRU | RT activity | 10 µM | 23.4%

4 of the rows above, restated:

Nc1nc(=O)n([C@@H]2CC[C@H](CO)O2)cc1F ; strain: IIIB ; method: cytopathic effect / MTT ; tested at: 0.4 µM ; result: 36%
CC(C)CN(C[C@@H](O)[C@H](Cc1ccccc1)NC(=O)[C@@H](NC(=O)CNC(C)(C)c1cccc(F)c1)C(C)(C)C)S(=O)(=O)c1ccc2ncsc2c1 ; strain: RF ; tested at: 90 µM ; result: <1%
CC(=O)Oc1cc2[nH]cc(C(=O)C(=O)N3CCN(C(=O)c4ccccc4)CC3)c2cc1OC(C)=O ; strain: BRU ; method: RT activity ; tested at: 10 µM ; result: 34%
CC(C)[C@H](NC(=O)[C@H](Cc1ccccc1)C[C@H](O)[C@H](Cc1ccccc1)NC(=O)OC(C)(C)C)C(=O)N[C@@H](Cc1ccccc1)C(=O)N1CCOCC1 ; strain: pLAI ; method: RT activity ; tested at: 0.1 µM ; result: 90%